Pooled drug test results. Numbers come from NIAID ChemDB, via PubChem.

Common to all: whole-cell or culture tests; agent: Hepatitis C virus; cell line: Huh7; read-out: EC50

Lines come from different laboratories, so protocols vary. Two numbers with a dash give a range or band. Blank or dashed fields: not listed here. ECn is the concentration giving n% inhibition of infection, replication or growth.

SMILES | strain | changes | method | value
CNC(=O)c1c(-c2ccc(F)cc2)oc2cc(-c3cccnc3)c(OC)cc12 |  |  | replicon | <1 µM
CCC(=O)Nc1ccc(-c2ccc3nc(N)nc(NCCS(C)(=O)=O)c3n2)cc1 |  |  | replicon | >1 µM
N#Cc1c(Nc2ccc(C(F)(F)F)cn2)s[nH]c1=O |  |  | replicon | 10–50 µM
CC(C)NC(=O)c1ccc(-c2ccc3nc(N)nc(OC(C)C)c3n2)cc1 |  |  | replicon | <0.3 µM
CC(=O)c1cccc(Nc2s[nH]c(=O)c2C#N)c1 |  |  | replicon | >50 µM
CC(C)Oc1cc2c(C(=O)NC3CC3)c(-c3ccc(F)cc3)oc2cc1NS(C)(=O)=O |  |  | replicon | <1 µM
N#Cc1c(NCC2CCCO2)s[nH]c1=O |  |  | replicon | >50 µM
COc1c(-c2ccc3cc(NS(C)(=O)=O)ccc3c2)cc(-n2ccc(=O)[nH]c2=O)cc1C(C)(C)C | genotype 1b | P495A | luciferase | 0.0043 µM
Cc1cnc(CN2C(=O)C(c3ccc(NC(=O)[C@H]4CCCN4C(=O)OCc4ccccc4)cc3)SC2=Nc2cccc(F)c2)cn1 |  |  | replicon | <0.1 µM
N#Cc1c(Nc2ccc(Cc3ccccc3)cc2)s[nH]c1=O |  |  | replicon | >50 µM
O=C(O)/C=C/c1ccc(NC(=O)C2(NC(=O)c3ccc4c(c3)nc(-c3ccc[nH]3)n4C3CCCCC3)CCCC2)cc1 |  |  |  | ≤5 µM
Cc1cccc(C)c1Sc1ccc(Nc2s[nH]c(=O)c2C#N)cc1 |  |  | replicon | 1–10 µM
CCc1cc2c(C(=O)NC)c(-c3ccc(F)cc3)oc2cc1NS(C)(=O)=O |  |  | replicon | <10 µM
C=CC1CC1(NC(=O)[C@@H]1C[C@@H](OC(=O)Nc2ccccc2-c2ncn[nH]2)CN1C(=O)[C@@H](NC(=O)OC(C)(C)C)C(C)(C)C)C(=O)NS(=O)(=O)C1CC1 | 1b |  | replicon | >10 µM
CNC(=O)c1c(-c2ccc(F)cc2)oc2cc(N3CCOCC3)c(OCc3cnc[nH]3)cc12 |  |  | replicon | <10 µM
Cc1cc(=O)oc2cc(NC(=O)[C@@H](C)NC(=O)c3ccc4c(c3)nc(-c3ccoc3)n4C3CCCCC3)ccc12 |  |  |  | ≤5 µM
C=CC1CC1(NC(=O)[C@@H]1C[C@@H](OC(=O)Nc2cccc(C(=O)OC)c2)CN1C(=O)[C@@H](NC(=O)OC(C)(C)C)C(C)(C)C)C(=O)NS(=O)(=O)C1CC1 | 1b |  | replicon | 1–10 µM
CNC(=O)c1c(-c2ccc(F)cc2)oc2cc(C3CCCN3C(N)=O)c(OC)cc12 |  |  | replicon | <1 µM
C=CC1CC1(NC(=O)[C@@H]1C[C@@H](OC(=O)Nc2cc(C)ccc2-n2cccc2)CN1C(=O)[C@@H](NC(=O)OC(C)(C)C)C(C)(C)C)C(=O)NS(=O)(=O)C1CC1 | 1b |  | replicon | <0.1 µM
CN=C1SC(c2ccc(NC(=O)[C@@H]3CCCN3C(=O)Cc3ccccc3)cc2)C(=O)N1Cc1ccccn1 |  |  | replicon | <0.1 µM
CCOc1nc(N)nc2ccc(-c3ccc(C(=O)NCC(C)C)cc3)nc12 |  |  | replicon | 0.3–1 µM
CCN1CCC(NC(=O)c2ccc3c(c2)nc(-c2ccoc2)n3C2CCCCC2)(C(=O)Nc2ccc(-c3nc(C(N)=O)cs3)cc2)CC1 |  |  |  | ≤5 µM
N#Cc1c(Nc2ccc(I)cc2Cl)s[nH]c1=O |  |  | replicon | 1–10 µM
Cc1cc(F)ccc1N=C1SC(c2ccc(NC(=O)[C@@H](C)NC(=O)OCc3ccccc3)cc2)C(=O)N1Cc1ccco1 |  |  | replicon | 1–5 µM
CN1CCCC1CCNC(=O)c1ccc(-c2ccc3nc(N)nc(O[C@H]4CCOC4)c3n2)cc1 |  |  | replicon | >1 µM
COC(=O)c1ccccc1Nc1s[nH]c(=O)c1C#N |  |  | replicon | >50 µM
CC(C)N=C1SC(c2ccc(NC(=O)[C@@H](C)NC(=O)[C@H](O)c3ccccc3)cc2)C(=O)N1Cc1ccccn1 |  |  | replicon | <0.1 µM
C[C@H]1CCC[C@H](C)C1n1c(-c2ccccn2)nc2cc(C(=O)NC3(C(=O)Nc4ccc(/C=C/C(=O)O)cc4)CCCC3)ccc21 |  |  |  | ≤5 µM
C=CC1CC1(NC(=O)[C@@H]1C[C@@H](OC(=O)Nc2ccccc2OC)CN1C(=O)[C@@H](NC(=O)OC(C)(C)C)C(C)(C)C)C(=O)NS(=O)(=O)C1CC1 | 1b |  | replicon | 0.1–1 µM
CC(C)Oc1nc(N)nc2ccc(-c3ccc(C(=O)NC4CC4)cc3)nc12 |  |  | replicon | <0.3 µM
C=CC1CC1(NC(=O)[C@@H]1C[C@@H](OC(=O)Nc2cccc(C)c2C)CN1C(=O)[C@@H](NC(=O)OC(C)(C)C)C(C)(C)C)C(=O)NS(=O)(=O)C1CC1 | 1b |  | replicon | 1–10 µM
CNC(=O)c1c(-c2ccccc2)oc2ccc(C(C)(C)C)cc12 |  |  | replicon | <10 µM
C=CC1CC1(NC(=O)[C@@H]1C[C@@H](OC(=O)Nc2ccccc2C(=O)OCCCC)CN1C(=O)[C@@H](NC(=O)OC(C)(C)C)C(C)(C)C)C(=O)NS(=O)(=O)C1CC1 | 1b |  | replicon | 0.1–1 µM
CNC(=O)c1c(-c2ccc(F)cc2)oc2cc(C)c(OC(C)C)cc12 |  |  | replicon | <10 µM
C=CC1CC1(NC(=O)[C@@H]1C[C@@H](OC(=O)Nc2cc(F)ccc2-n2cccn2)CN1C(=O)[C@@H](NC(=O)OC(C)(C)C)C(C)(C)C)C(=O)NS(=O)(=O)C1CC1 | 1b |  | replicon | <0.1 µM
CNC(=O)c1c(-c2ccc(F)cc2F)oc2ccc(OC(C)C)cc12 |  |  | replicon | <30 µM
C[C@@H](NC(=O)c1ccc2c(c1)nc(-c1ccc[nH]1)n2C1CCCCC1)C(=O)Nc1ccc(/C=C/C(=O)O)cc1 |  |  |  | 5–50 µM
CNC(=O)c1c(-c2ccc(F)cc2)oc2cc(OC)c(OC(C)C)cc12 |  |  | replicon | <10 µM
C=CC1CC1(NC(=O)[C@@H]1C[C@@H](OC(=O)Nc2ccc3c(c2)OCO3)CN1C(=O)[C@@H](NC(=O)OC(C)(C)C)C(C)(C)C)C(=O)NS(=O)(=O)C1CC1 | 1b |  | replicon | >10 µM

Repeating the final 5 entries:

C=CC1CC1(NC(=O)[C@@H]1C[C@@H](OC(=O)Nc2cc(F)ccc2-n2cccn2)CN1C(=O)[C@@H](NC(=O)OC(C)(C)C)C(C)(C)C)C(=O)NS(=O)(=O)C1CC1 ; strain: 1b ; method: replicon ; value: <0.1 µM
CNC(=O)c1c(-c2ccc(F)cc2F)oc2ccc(OC(C)C)cc12 ; method: replicon ; value: <30 µM
C[C@@H](NC(=O)c1ccc2c(c1)nc(-c1ccc[nH]1)n2C1CCCCC1)C(=O)Nc1ccc(/C=C/C(=O)O)cc1 ; value: 5–50 µM
CNC(=O)c1c(-c2ccc(F)cc2)oc2cc(OC)c(OC(C)C)cc12 ; method: replicon ; value: <10 µM
C=CC1CC1(NC(=O)[C@@H]1C[C@@H](OC(=O)Nc2ccc3c(c2)OCO3)CN1C(=O)[C@@H](NC(=O)OC(C)(C)C)C(C)(C)C)C(=O)NS(=O)(=O)C1CC1 ; strain: 1b ; method: replicon ; value: >10 µM